Results published in PMC10593844, “Structure-function analyses reveal key molecular determinants of HIV-1 CRF01_AE resistance to the entry inhibitor temsavir” (Nature Communications, 2023).
“And” between values parts separate entries of the source, which are not always exact repeats. Equal entries are not always repeated.

What was measured:
[1] = system: CRF01_AE CM244 Env […] on HEK293T cells; type: binding; settings: temsavir 10 µM, listed as TMR
[2] = system: CRF01_AE 92TH023 Env […] on HEK293T cells; type: binding; settings: 92TH023 […]; temsavir 10 µM; listed as TMR

## COc1cnc(-n2cnc(C)n2)c2[nH]cc(C(=O)C(=O)N3CCN(C(=O)c4ccccc4)CC3)c12 [Temsavir, temsavir]
[1]
  sCD4 binding (+TMR) - Fold over DMSO: 0.8887 and 0.735 and 0.8899
[2]
  sCD4 binding (+TMR) - Fold over DMSO: 0.7004 and 0.8137 and 0.9458
